Data as given in PubChem BioAssay AID504761 (Drosophila RNAi Screening Center, 2011)
The screen tested about 22,000 reagents; shown is an unselected part of those with a known target gene and a result. Of all reagents, 116 (0.52%) are marked active. 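Calls depend on retest data that are not deposited; infection was ranked per plate without normalising between plates; the unit of the infection score is not given.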 A plus sign joins genes that one reagent is predicted to hit. Not all columns of the deposit are shown. Not stated in the record: the amount of reagent, the time to read-out.

- Aim: 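Insect host genes that dengue virus relies on to spread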 (primary screen)
- Cell system: D.Mel-2 cells from Drosophila
- Reagent: long dsRNA against Drosophila genes
- Conditions: infection with dengue virus type 2; dose and infection time not stated
- Detection: 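Cells stained for dengue envelope protein and imaged; percent of infected cells per well on duplicate plates, ranked by infection, with stained nuclei counted for cell number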
- Scale: infection score: higher = more virus-infected cells
- Active means: 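Low infection ranks in the two replicates (chance level up to 0.065) followed by a retest with a 1.5-fold or larger significant decrease, p below 0.05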
- Meaning of the calls: active = confirmed: knock-down lowers infection; inactive = not picked or not confirmed

| Target gene | dsRNA | infection score, replicate 1 | infection score, replicate 2 | activity call |
| --- | --- | --- | --- | --- |
| Faa (GeneID 45577) | DRSC08451 | 15.2 | 15.9 | inactive |
| Smu1 (GeneID 42272) | DRSC15803 | 12.3 | 7.51 | inactive |
| CG14913 (GeneID 34532) | DRSC02397 | 3.69 | 3.62 | inactive |
| CG14913 (GeneID 34532) | DRSC27967 | 23.5 | 12.7 | inactive |
| c-cup (GeneID 33360) | DRSC00458 | 3.36 | 1.46 | inactive |
| puc (GeneID 40958) | DRSC17034 | 1.84 | 1.95 | inactive |
| puc (GeneID 40958) | DRSC26308 | 4.21 | 2.36 | inactive |
| rad50 (GeneID 37564) | DRSC04523 | 16.5 | 15 | inactive |
| hoip (GeneID 44173) | DRSC03546 | 17.8 | 19.1 | inactive |
| CG15772 (GeneID 31498) | DRSC18078 | 2.36 | 1.34 | inactive |
| wapl (GeneID 31187) | DRSC18851 | 6.88 | 1.74 | inactive |
| wapl (GeneID 31187) | DRSC27941 | 18.4 | 14.9 | inactive |
| Rnf146 (GeneID 40144) | DRSC11045 | 3.72 | 3.81 | inactive |
| CG13920 (GeneID 38203) | DRSC08389 | 21.4 | 0.65 | inactive |
| CG11878 (GeneID 43050) | DRSC14422 | 9.27 | 6.33 | inactive |
| CG11878 (GeneID 43050) | DRSC24563 | 1.18 | 3.26 | inactive |
| Rpn8 (GeneID 37894) | DRSC04624 | 1.1 | 0.75 | inactive |
| Rpn8 (GeneID 37894) | DRSC29897 | 25.1 | 7.56 | inactive |
| CycB3 (GeneID 42971) | DRSC16618 | 4.21 | – | inactive |
| btsz (GeneID 3346167) | DRSC16231 | 6.25 | 16.6 | inactive |
| Nil (GeneID 43185) | DRSC15953 | 2.18 | 9.76 | inactive |
| Nil (GeneID 43185) | DRSC23322 | 1.2 | 7.54 | inactive |
| CG34109 (GeneID 4379890) | DRSC02169 | 2.93 | 0.8 | inactive |
| CG34109 (GeneID 4379890) | DRSC02224 | 2.71 | 3.19 | inactive |
| CG34109 (GeneID 4379890) | DRSC02225 | 2.9 | 2.29 | inactive |
| CG34109 (GeneID 4379890) | DRSC26977 | 11.1 | 20.4 | inactive |
| CG34109 (GeneID 4379890) | DRSC30104 | 2.57 | 7.26 | inactive |
| CG3280 (retired record) (GeneID 39117) | DRSC10356 | 1.6 | 1.22 | inactive |
| CG3358 (GeneID 35604) | DRSC04992 | 10.2 | 39.4 | inactive |
| CG11755 (GeneID 41031) | DRSC14374 | 6.21 | 12.8 | inactive |
| CG11755 (GeneID 41031) | DRSC26076 | 6.21 | 3.46 | inactive |
| ovm + CG31975 | DRSC22146 | 2.81 | 26.6 | inactive |
| CG10286 (GeneID 40786) | DRSC12520 | – | 5.93 | inactive |
| CG32733 (retired record) + CG32797 | DRSC17705 | 0.89 | 0.03 | inactive |
| tbrd-3 (GeneID 246604) | DRSC04295 | 7.69 | 18.6 | inactive |
| tbrd-3 (GeneID 246604) | DRSC26310 | 6.26 | 12.4 | inactive |
| trr (GeneID 31149) | DRSC23290 | 9.26 | 4.18 | inactive |
| trr (GeneID 31149) | DRSC28776 | 15.9 | 8.12 | inactive |
| Scox (GeneID 33711) | DRSC03117 | 6.16 | 9.07 | inactive |
| Scox (GeneID 33711) | DRSC26366 | 4.89 | 13.5 | inactive |

Sorted by “infection score, replicate 2” (ascending): some entries from above
| Target gene | dsRNA | infection score, replicate 1 | infection score, replicate 2 | activity call |
| --- | --- | --- | --- | --- |
| c-cup (GeneID 33360) | DRSC00458 | 3.36 | 1.46 | inactive |
| CG14913 (GeneID 34532) | DRSC02397 | 3.69 | 3.62 | inactive |
| Smu1 (GeneID 42272) | DRSC15803 | 12.3 | 7.51 | inactive |
| CG14913 (GeneID 34532) | DRSC27967 | 23.5 | 12.7 | inactive |
| Faa (GeneID 45577) | DRSC08451 | 15.2 | 15.9 | inactive |
